Paper PMC9658817, “Design, Synthesis, and Mechanistic Study of 2-Pyridone-Bearing Phenylalanine Derivatives as Novel HIV Capsid Modulators” (Molecules, 2022)

Assays:
[1] = tested on: HIV-1 IIIB; test: Anti-HIV-1 activity in MT-4 cells (MTT assay); type: cell-based; details: selectivity index, ratio of CC50/EC50
Procedure: (§1) The antiviral activities and cytotoxicities of the target compounds were tested using MT-4 cells infected by HIV-1 IIIB or HIV-2 ROD. […] PF74 was utilized as the control drug in this assay.

[2] = tested on: HIV-2 ROD; test: Anti-HIV-2 activity in MT-4 cells (MTT assay); type: cell-based; details: selectivity index, ratio of CC50/EC50
Procedure: as §1

| Compound | SI HIV-1 [1] | SI HIV-2 [2] |
| --- | --- | --- |
| COc1ccc(N(C)C(=O)[C@H](Cc2cc(F)cc(F)c2)NC(=O)Cn2ccc(N)cc2=O)cc1 [FTC-2, (S)-2-(2-(4-amino-2-oxopyridin-1(2H)-yl)acetamido)-3-(3,5-difluorophenyl)-N-(4-methoxyphenyl)-N-methylpropanamide] | > 49.57 | > 17.08 |
| Cc1[nH]c2ccccc2c1CC(=O)NC(Cc1ccccc1)C(=O)N(C)c1ccccc1 (stereo not shown) [PF74, reference compound] | >271.99 | >51.00 |
| COc1ccc(N(C)C(=O)[C@H](Cc2ccccc2)NC(=O)Cn2ccc(N)cc2=O)cc1 [TC-2, (S)-2-(2-(4-amino-2-oxopyridin-1(2H)-yl)acetamido)-N-(4-methoxyphenyl)-N-methyl-3-phenylpropanamide] | 8.98 | 13.24 |
| COc1ccc(N(C)C(=O)[C@H](Cc2ccccc2)NC(=O)Cn2ccc(NC(=O)c3ccccc3)cc2=O)cc1 [TD-1a, (S)-N-(1-(2-((1-((4-methoxyphenyl)(methyl)amino)-1-oxo-3-phenylpropan-2-yl)amino)-2-oxoethyl)-2-oxo-1,2-dihydropyridin-4-yl)benzamide] | 5.15 | 17.81 |
| COc1ccc(N(C)C(=O)[C@H](Cc2ccccc2)NC(=O)Cn2ccc(NC(=O)c3ccc(F)cc3)cc2=O)cc1 [TD-1b, (S)-4-fluoro-N-(1-(2-((1-((4-methoxyphenyl)(methyl)amino)-1-oxo-3-phenylpropan-2-yl)amino)-2-oxoethyl)-2-oxo-1,2-dihydropyridin-4-yl)benzamide] |  | 2.15 |
| COc1ccc(N(C)C(=O)[C@H](Cc2ccccc2)NC(=O)Cn2ccc(NC(=O)c3cccc(F)c3)cc2=O)cc1 [TD-1c, (S)-3-fluoro-N-(1-(2-((1-((4-methoxyphenyl)(methyl)amino)-1-oxo-3-phenylpropan-2-yl)amino)-2-oxoethyl)-2-oxo-1,2-dihydropyridin-4-yl)benzamide] | 3.26 | 9.36 |
| COc1ccc(N(C)C(=O)[C@H](Cc2ccccc2)NC(=O)Cn2ccc(NC(=O)c3ccccc3F)cc2=O)cc1 [TD-1d, (S)-2-fluoro-N-(1-(2-((1-((4-methoxyphenyl)(methyl)amino)-1-oxo-3-phenylpropan-2-yl)amino)-2-oxoethyl)-2-oxo-1,2-dihydropyridin-4-yl)benzamide] | 4.55 | 10.28 |
| COc1ccc(N(C)C(=O)[C@H](Cc2ccccc2)NC(=O)Cn2ccc(NC(=O)c3ccc(C)cc3)cc2=O)cc1 [TD-1g, (S)-N-(1-(2-((1-((4-methoxyphenyl)(methyl)amino)-1-oxo-3-phenylpropan-2-yl)amino)-2-oxoethyl)-2-oxo-1,2-dihydropyridin-4-yl)-4-methylbenzamide] | 2.28 | 2.85 |
| COc1ccc(C(=O)Nc2ccn(CC(=O)N[C@@H](Cc3ccccc3)C(=O)N(C)c3ccc(OC)cc3)c(=O)c2)cc1 [TD-1h, (S)-4-methoxy-N-(1-(2-((1-((4-methoxyphenyl)(methyl)amino)-1-oxo-3-phenylpropan-2-yl)amino)-2-oxoethyl)-2-oxo-1,2-dihydropyridin-4-yl)benzamide] | 1.79 | 4.98 |
| COC(=O)c1ccc(C(=O)Nc2ccn(CC(=O)N[C@@H](Cc3ccccc3)C(=O)N(C)c3ccc(OC)cc3)c(=O)c2)cc1 [TD-1i, methyl (S)-4-((1-(2-((1-((4-methoxyphenyl)(methyl)amino)-1-oxo-3-phenylpropan-2-yl)amino)-2-oxoethyl)-2-oxo-1,2-dihydropyridin-4-yl)carbamoyl)benzoate] | 5.04 | 6.31 |
| COc1ccc(N(C)C(=O)[C@H](Cc2ccccc2)NC(=O)Cn2ccc(NC(=O)c3ccc(C#N)cc3)cc2=O)cc1 [TD-1j, (S)-4-cyano-N-(1-(2-((1-((4-methoxyphenyl)(methyl)amino)-1-oxo-3-phenylpropan-2-yl)amino)-2-oxoethyl)-2-oxo-1,2-dihydropyridin-4-yl)benzamide] | 8.18 | 7.69 |
| COc1ccc(N(C)C(=O)[C@H](Cc2ccccc2)NC(=O)Cn2ccc(NC(=O)c3ccc(N)cc3)cc2=O)cc1 [TD-1m, (S)-4-amino-N-(1-(2-((1-((4-methoxyphenyl)(methyl)amino)-1-oxo-3-phenylpropan-2-yl)amino)-2-oxoethyl)-2-oxo-1,2-dihydropyridin-4-yl)benzamide] |  | 11.04 |
